A mixed list of measured activities; the numbers were collected in NIAID ChemDB.

Shared fields: growth or infection tests; agent: HIV-1; endpoint: EC50

Conditions beyond the fields shown may differ between rows.

compound	strain or isolate	conditions	cell line	changes	read by	value
Cc1ccnc2c1NC(=O)c1cccnc1N2C1CC1	IIIB	-	A72	-	GFP / flow cytometry	0.014 µg/mL
CC(C)[C@H](NC(=O)OCc1ccccn1)C(=O)N[C@@H](Cc1ccccc1)[C@@H](O)C[C@H](Cc1ccccc1)NC(=O)OCc1cccnc1	NL4-3	-	MT-4	PR-L10R L63P V82T I84V	p24	<1.5 µM
Nc1ccn([C@H]2S[C@@H](CO)C=C2F)c(=O)n1	BRU-184V	-	PBMC	-	PCR	<65.8 µM
C#CCOC(C(=O)O)c1c(C)nc2ccc(Br)cc2c1-c1ccc(Cl)cc1	-	-	C8166	-	luciferase / reporter gene	<20 µM
CC(C)C1=C2[C@H]3CC[C@@H]4[C@@]5(C)CC[C@H](OC(=O)[C@H]6C[C@@H](C(=O)O)C6(C)C)C(C)(C)[C@@H]5CC[C@@]4(C)[C@]3(C)CC[C@@]2(CCNC[C@@H]2CCCCN2)CC1=O	92HT599	-	MT-2	-	p24 / ELISA	<1 µM
Cc1cn([C@H]2C[C@H](F)[C@@H](CO)O2)c(=O)[nH]c1=O	BaL	-	MAGI	-	single cycle	<0.1 µg/mL
CC(C)C1=C2[C@H]3CC[C@@H]4[C@@]5(C)CC[C@H](OC(=O)[C@H]6C[C@@H](C(=O)O)C6(C)C)C(C)(C)[C@@H]5CC[C@@]4(C)[C@]3(C)CC[C@@]2(CC(=O)NC2(c3ncc(Cl)cn3)CC2)CC1=O	92HT599	-	MT-2	-	p24 / ELISA	<1 µM
COCC[C@@]1(C)C(=O)c2c(O)c(=O)c(C(=O)NCc3ccc(F)cc3F)cn2C[C@@H]1OC	NL4-3	100% human serum	MT-4	-	GFP	0.099 µM
[2H]C(CNC(=O)C[C@@]12CC[C@]3(C)[C@H](CC[C@@H]4[C@@]5(C)CC[C@H](OC(=O)[C@H]6C[C@@H](C(=O)O)C6(C)C)C(C)(C)[C@@H]5CC[C@]43C)C1=C(C(C)C)C(=O)C2)NC(=O)c1ccc(Cl)cc1	92HT599	-	MT-2	-	p24 / ELISA	<1 µM
CCc1ccc(-c2c(C(OC(C)(C)C(F)(F)F)C(=O)O)c(C)nc3ccc(Cl)cc23)cc1	-	-	C8166	-	luciferase / reporter gene	<20 µM
CCCCCC(O)/C=C/C=C\CCCCCC[C@@]1(O)C[C@H](C(=O)OC)[C@H](C(C)=O)O1	IIIB	-	C8166	-	cytopathic effect / syncytia	0.08 µM
CC(C)C1=C2[C@H]3CC[C@@H]4[C@@]5(C)CC[C@H](OC(=O)[C@H]6C[C@@H](C(=O)O)C6(C)C)C(C)(C)[C@@H]5CC[C@@]4(C)[C@]3(C)CC[C@@]2([C@@H](O)CNC(=O)c2ccc3ccccc3n2)CC1=O	92HT599	-	MT-2	-	p24 / ELISA	<1 µM
COC(=O)c1cccc(Cn2ccc3cc(F)c(-c4ccc5ccn(Cc6cccc(C(=O)O)c6)c5c4)cc32)c1	HXB2	-	TZM-bl + HL2/3	-	cell fusion / luminescence	0.4 µM
NCCN1CCC(NC(=O)C(=O)Nc2ccc(Cl)cc2)CC12CCCCC2	YTA	-	TZM-bl	-	single cycle	11 µM
Cc1nc2ccc(Cl)cc2c(-c2ccc3cc[nH]c3c2)c1C(OC(C)C)C(=O)O	-	-	C8166	-	luciferase / reporter gene	<20 µM
CC[C@H]1COC[C@@H](N(C)C(=O)C(=O)N(C)C)c2nc(C(=O)NCc3ccc(F)cc3)c(O)c(=O)n21	-	-	HeLa P4-2	Y143R	single cycle	0.001 µM
Cc1cn([C@H]2C[C@H](N=[N+]=[N-])[C@@H](COP(=O)(O)CCl)O2)c(=O)[nH]c1=O	GKV-4046	-	MT-4	-	MTT / p24	0.05 µM
CC(=O)CCCCCCCCCCCCC[C@@H]1OC(=O)[C@@H](C)[C@@H]1C(=O)O	IIIB	-	C8166	-	cytopathic effect / syncytia	0.66 µM
C[C@@H]1CN(C(=O)c2ccccc2)CCN1C(=O)C(=O)c1cn(S(C)(=O)=O)c2c(NS(C)(=O)=O)cccc12	-	-	HeLa	-	luciferase / reporter gene	<1 µM
Cc1cc(CNC(=O)c2nc3n(c(=O)c2O)CC(C)(C)CCC3N(C)C(=O)C(=O)N(C)C)ccc1F	-	-	HeLa P4-2	N155H	single cycle	0.001 µM
CC(C)CN(C[C@@H](O)[C@H](Cc1cc(F)cc(F)c1)NC(=O)O[C@H]1CO[C@H]2OC[C@H](NC(C)C)[C@H]21)S(=O)(=O)c1ccc2nc(NC3CC3)sc2c1	NL4-3	-	MT-4	-	MTT / p24	0.00034 µM
Cc1cc(CNC(=O)c2nc3n(c(=O)c2O)[C@H](C)COC[C@@H]3N(C)C(=O)C(=O)N(C)C)ccc1F	-	-	HeLa P4-2	Y143R	single cycle	0.001 µM
N#CCN1CCC(NC(=O)C(=O)Nc2ccc(Cl)cc2)CC12CCCCC2	YTA	-	TZM-bl	-	single cycle	5.2 µM
COc1cccc(CN(C(=O)OC(C)(C)C)c2cccc(-c3ccc4ccn(Cc5cccc(C(=O)O)c5)c4c3)c2)c1	HXB2	-	TZM-bl + HL2/3	-	cell fusion / luminescence	4.2 µM
COC(C(=O)O)c1c(C)nc2ccc(Cl)cc2c1-c1ccc2occc2c1	-	-	C8166	-	luciferase / reporter gene	<20 µM
Cc1cc(CNC(=O)c2nc3n(c(=O)c2O)[C@@H](C)COC[C@H]3N(C)C(=O)C(=O)N(C)C)ccc1F	-	-	HeLa P4-2	G140S/Q148H	single cycle	0.012 µM
N#CC(=C1CCN(C(=O)C(=O)c2c[nH]c3c(NC(=O)NCCCC(=O)O)cccc23)CC1)c1ccccc1	-	-	HeLa	-	luciferase / reporter gene	<1 µM
CC(=O)SCCOP(=O)(OCCSC(C)=O)OC[C@@H]1CC[C@H](n2ccc(N)nc2=O)O1	RF	-	MOLT-4/8 + MOLT-4	-	MTT / p24	0.93 µM
C[C@@H]1CCO[C@H]2Cn3cc(C(=O)NCc4ccc(F)cc4F)c(=O)c(O)c3C(=O)N12	NL4-3	-	CBMC	-	RT activity	0.0011 µM
CCc1ccc(-c2c(C(OC(C)(C)CC)C(=O)O)c(C)nc3ccc(Cl)cc23)cc1	-	-	C8166	-	luciferase / reporter gene	<20 µM
N=C1Sc2ccccc2C2=NCCCN12	92UG001	-	PBMC	-	β-galactosidase	1.11 µM
CCCC(C(=O)O)c1c(C)nc2ccc(Cl)cc2c1-c1ccc(Br)cc1	-	-	C8166	-	luciferase / reporter gene	<20 µM
COCP(=O)(O)OC[C@H]1O[C@@H](n2cc(C)c(=O)[nH]c2=O)C[C@@H]1N=[N+]=[N-]	GKV-4046	-	MT-4	-	MTT / p24	5 µM
CC[C@@H]1COC[C@H](N(C)C(=O)C(=O)N(C)C)c2nc(C(=O)NCc3ccc(F)cc3)c(O)c(=O)n21	-	-	HeLa P4-2	Q148R	single cycle	0.007 µM
COc1ccc(C)cc1CS(=O)(=O)c1cccc[n+]1[O-]	IIIB	-	CEM	-	syncytia	5.9 µg/mL
O=C(Nc1ccc(Cl)cc1)C(=O)NC1CC2(CCCCC2)NC2(CCCCC2)C1	YTA	-	TZM-bl	-	single cycle	9 µM
CC(=O)c1c(C)nc(-c2ccccc2)nc1NC(=O)c1ccccc1	AE-CMU06	-	HeLa	-	GFP / fluorescence	0.1 µM
Cc1ccc(C)c(CS(=O)c2ccc(Cl)c[n+]2[O-])c1	IIIB	-	CEM	RT-L100I	syncytia	4.6 µg/mL
N#CC1=CC2Nc3ccccc3C2N(c2ccc([N+](=O)[O-])cc2)C1=O	O-MVP5180	-	HeLa	-	GFP / fluorescence	0.001 µM
COC([C@@H]1OC[C@@](O)(CO)[C@H]1N=[N+]=[N-])n1ccc(N)nc1=O	IIIB	-	MT-4	-	ELISA / antigen	>300 µM
CO[C@]1(C)CC[C@@H](N(C)C(=O)C(=O)N(C)C)c2nc(C(=O)NCc3ccc(F)c(C)c3)c(O)c(=O)n2C1	-	-	HeLa P4-2	N155H	single cycle	0.002 µM
CCc1c(-c2ccc3c(c2)OCO3)nc(SCc2cc(-c3ccc(C)cc3)n[nH]2)[nH]c1=O	IIIB	-	C8166	-	MTT / syncytia	4.41 µM
C[C@H](NC(=O)CCC(CCC(=O)N[C@@H](C)C(=O)O)(CCC(=O)N[C@@H](C)C(=O)O)NC(=O)CCOCC(COCCC(=O)NC(CCC(=O)N[C@@H](C)C(=O)O)(CCC(=O)N[C@@H](C)C(=O)O)CCC(=O)N[C@H](C)C(=O)O)(COCCC(=O)NC(CCC(=O)N[C@@H](C)C(=O)O)(CCC(=O)N[C@H](C)C(=O)O)CCC(=O)N[C@H](C)C(=O)O)COCCC(=O)NC(CCC(=O)N[C@@H](C)C(=O)O)(CCC(=O)N[C@H](C)C(=O)O)CCC(=O)N[C@H](C)C(=O)O)C(=O)O	NL4-3	-	MT-4	-	MTS	>100 µM
CC1(C)CCn2cc(C(=O)NCc3ccc(F)cc3F)c(=O)c(O)c2C1=O	NL4-3	0% human serum	MT-4	-	GFP	0.0055 µM
CC(C)(C)OC(=O)NCCCCC(=O)NCCN1CCC(NC(=O)C(=O)Nc2ccc(Cl)cc2)CC12CCCCC2	YTA	-	TZM-bl	-	single cycle	11 µM
CC1(C)Oc2ccc3c(=O)cc(NCc4ccncc4)oc3c2[C@@H](OC(=O)C23CC[C@@](C)(C(=O)O2)C3(C)C)[C@H]1OC(=O)C12CC[C@](C)(C(=O)O1)C2(C)C	RTMDR1	-	TZM-bl	-	luciferase / fluorescence	21 µM
Cc1nc2ccc(Cl)cc2c(-c2ccc(O)cc2)c1C(OC(C)C)C(=O)O	-	-	C8166	-	luciferase / reporter gene	<20 µM
N#CC(=C1CCN(C(=O)C(=O)c2c[nH]c3c(N4C(=O)N[C@@H](CCC(=O)O)C4=O)cccc23)CC1)c1ccccc1	-	-	HeLa	-	luciferase / reporter gene	<1 µM
CC(C)C1=C2[C@H]3CC[C@@H]4[C@@]5(C)CC[C@H](OC(=O)[C@H]6C[C@@H](C(=O)O)C6(C)C)C(C)(C)[C@@H]5CC[C@@]4(C)[C@]3(C)CC[C@@]2(CC(=O)NCC(C)(C)NC(=O)c2ccncn2)CC1=O	92HT599	-	MT-2	-	p24 / ELISA	<1 µM
CCOC(=O)c1ccc(NC(=O)Nc2cccc3c(C(=O)C(=O)N4CCC(=C(C#N)c5ccccc5)CC4)c[nH]c23)cc1	-	-	HeLa	-	luciferase / reporter gene	<1 µM
CO[C@@H]([C@@H]1OC[C@@](O)(CO)[C@H]1N=[N+]=[N-])n1cc(C)c(=O)[nH]c1=O	IIIB	-	MT-4	-	ELISA / antigen	>300 µM
Cc1ccnc2c1NC(=O)c1cccnc1N2C1CC1	SF33	-	TZM-bl	-	p24 / ELISA	0.634 µM
Cc1cc(C)c(CS(=O)c2cccc[n+]2[O-])c(C)c1	IIIB	-	CEM	RT-L100I	syncytia	4.5 µg/mL
CCCc1cc(=O)oc2c3c(c4c(c12)OC(C)(C)CC4)O[C@H](C)[C@@H](C)C3=O	-	-	-	RT-K103N	cytopathic effect / XTT	30.6 µM
CC(=O)N1C2CCC(C2)N2C(=O)c3c(O)c(=O)c(C(=O)NCc4ccc(F)cc4F)cn3CC12	NL4-3	100% human serum	MT-4	-	GFP	0.043 µM
CC(C)C1=C2[C@H]3CC[C@@H]4[C@@]5(C)CC[C@H](OC(=O)[C@H]6C[C@@H](C(=O)O)C6(C)C)C(C)(C)[C@@H]5CC[C@@]4(C)[C@]3(C)CC[C@@]2(CC(=O)NCc2ccncc2)CC1=O	92HT599	-	MT-2	-	p24 / ELISA	<1 µM
C[C@]12CCCCC[C@@]1(O)Cn1cc(C(=O)NCc3cccc(Cl)c3F)c(=O)c(O)c1C2=O	NL4-3	0% human serum	MT-4	-	GFP	0.0008 µM

The last 3 rows once more:

compound,strain or isolate,conditions,cell line,changes,read by,value
CC(=O)N1C2CCC(C2)N2C(=O)c3c(O)c(=O)c(C(=O)NCc4ccc(F)cc4F)cn3CC12,NL4-3,100% human serum,MT-4,-,GFP,0.043 µM
CC(C)C1=C2[C@H]3CC[C@@H]4[C@@]5(C)CC[C@H](OC(=O)[C@H]6C[C@@H](C(=O)O)C6(C)C)C(C)(C)[C@@H]5CC[C@@]4(C)[C@]3(C)CC[C@@]2(CC(=O)NCc2ccncc2)CC1=O,92HT599,-,MT-2,-,p24 / ELISA,<1 µM
C[C@]12CCCCC[C@@]1(O)Cn1cc(C(=O)NCc3cccc(Cl)c3F)c(=O)c(O)c1C2=O,NL4-3,0% human serum,MT-4,-,GFP,0.0008 µM

ECn: concentration that inhibits the pathogen or its effect by n%. Blank or dashed fields: not listed here.